Results of unrelated studies side by side (data: NIAID ChemDB).

All rows: whole-cell or culture tests; agent: HIV-1; measure: EC50

Lines come from different laboratories, so protocols vary. ECn is the concentration giving n% inhibition of infection, replication or growth.

{"compound": "CN(C)C(=O)C1(C)CN(C)C(=O)c2c(O)c(=O)c(-c3ncc(Cc4ccc(F)cc4F)s3)cn21", "cell line": "CEM", "method": "XTT", "strain or isolate": "IIIB", "result": "0.0059 µM"}
{"compound": "OC1(CCCc2ccccc2)CCN(C[C@H]2CN(CC3CCCCC3)C[C@@H]2c2ccccc2)CC1", "cell line": "PBMC", "method": "p24", "strain or isolate": "YU2", "result": "<0.58 µM"}
{"compound": "COc1cc(/C=C/c2nc(NC(=S)Nc3ccc(Cl)cc3)c3ccccc3n2)cc(OC)c1OC", "cell line": "MT-4", "method": "MTT", "strain or isolate": "IIIB", "result": ">1.73 µg/mL"}
{"compound": "CN(C)CCCNCc1ccc(CNc2nc(NC3CCNCC3)c3ccccc3n2)cc1", "cell line": "TZM-bl", "method": "luciferase", "strain or isolate": "IIIB", "result": ">0.5 µM"}
{"compound": "Cc1ccc2sn(/N=C/c3ccc(O)c(O)c3)c(=O)c2c1", "cell line": "MT-4", "changes": "Y181C", "method": "MTT", "result": ">49 µM"}
{"compound": "Nc1nc2c(ncn2C/C=C\\CO)c(=O)[nH]1", "cell line": "MT-4", "result": ">100 µM"}
{"compound": "COc1ccc2c(c1)[nH]c1cc(OC)c(C(=O)O)cc12", "cell line": "1A2", "method": "syncytia", "result": "34.2 µM"}
{"compound": "Nc1nc2c(ncn2C/C=C\\COCP(=O)(O)O)c(=O)[nH]1", "cell line": "MT-4", "result": ">100 µM"}
{"compound": "N#C/C=C/c1cc(Cl)cc(Oc2ccc(OCCN3CCOCC3)cc2OCCn2ccc(=O)[nH]c2=O)c1", "cell line": "MT-2", "method": "MTT", "strain or isolate": "IIIB", "result": "1.1 µM"}
{"compound": "c1ccc2c(NC3CCNCC3)nc(NCc3ccc(CNCCCNC4CCCCC4)cc3)nc2c1", "cell line": "TZM-bl", "method": "luciferase", "strain or isolate": "IIIB", "result": "0.0684 µM"}
{"compound": "CC(C)C1=C2[C@H]3CC[C@@H]4[C@@]5(C)CC[C@H](OC(=O)[C@H]6C[C@@H](C(=O)O)C6(C)C)C(C)(C)[C@@H]5CC[C@@]4(C)[C@]3(C)CC[C@@]2([C@@H](O)CNCC2(NC(=O)c3ccc(Cl)cc3)CCCC2)CC1=O", "cell line": "MT-2", "method": "p24 / ELISA", "strain or isolate": "92HT599", "result": "<1 µM"}
{"compound": "O=c1c2ccccc2sn1/N=C/c1ccccc1F", "cell line": "MT-4", "method": "MTT", "result": ">11 µM"}
{"compound": "COc1cc(/C=C/c2nc(NC(=S)Nc3cccc(C)c3)c3ccccc3n2)cc(OC)c1OC", "cell line": "MT-4", "method": "MTT", "strain or isolate": "IIIB", "result": ">5.46 µg/mL"}
{"compound": "C[C@H](Cn1cnc2c(N)ncnc21)OCP(=O)(O)O", "cell line": "MT-2", "changes": "K65R/Y181C/G190S", "method": "recombinant virus assay", "strain or isolate": "Clinical isolate", "result": "0.006 µM"}
{"compound": "COc1cc(/C=C/c2nc(NC(=O)Nc3cccc([N+](=O)[O-])c3)c3ccccc3n2)cc(OC)c1OC", "cell line": "MT-4", "method": "MTT", "strain or isolate": "IIIB", "result": ">1.17 µg/mL"}
{"compound": "CC(C)C1=C2[C@H]3CC[C@@H]4[C@@]5(C)CC[C@H](OC(=O)[C@H]6C[C@@H](C(=O)O)C6(C)C)C(C)(C)[C@@H]5CC[C@@]4(C)[C@]3(C)CC[C@@]2(CCNC(=O)c2ccc3nc(-c4ccccc4)[nH]c3c2)CC1=O", "cell line": "MT-2", "method": "p24 / ELISA", "strain or isolate": "92HT599", "result": "<1 µM"}
{"compound": "Cc1ccc2sn(/N=C/c3ccc4c(c3)OCO4)c(=O)c2c1", "cell line": "MT-4", "method": "MTT", "result": "33 µM"}
{"compound": "COc1cc(/C=C/c2nc(NC(=S)Nc3ccccc3C)c3ccccc3n2)cc(OC)c1OC", "cell line": "MT-4", "method": "MTT", "strain or isolate": "IIIB", "result": ">4.05 µg/mL"}
{"compound": "c1ccc2c(NC3CCNCC3)nc(NCc3ccc(CNCCCN4CCNCC4)cc3)nc2c1", "cell line": "TZM-bl", "method": "luciferase", "strain or isolate": "IIIB", "result": ">0.5 µM"}
{"compound": "CC(C)C1=C2[C@H]3CC[C@@H]4[C@@]5(C)CC[C@H](OC(=O)[C@H]6C[C@@H](C(=O)O)C6(C)C)C(C)(C)[C@@H]5CC[C@@]4(C)[C@]3(C)CC[C@@]2([C@@H](O)CNC(=O)C(C)(CO)NC(=O)c2ccc(Cl)cc2)CC1=O", "cell line": "MT-2", "method": "p24 / ELISA", "strain or isolate": "92HT599", "result": "<1 µM"}
{"compound": "Cc1cc(C(C)(O)c2ccc(F)cc2)nc(Nc2ccc(C#N)cc2)n1", "cell line": "MT-4", "method": "MTT", "strain or isolate": "IRLL98", "result": ">61.5 µM"}
{"compound": "O=c1c2ccccc2sn1/N=C/c1ccc(O)c(O)c1", "cell line": "MT-4", "method": "MTT", "result": ">44 µM"}
{"compound": "CN(CC(CCN1CCC(CCCc2ccccc2)CC1)c1ccccc1)S(=O)(=O)c1cccs1", "cell line": "PBMC", "method": "p24", "strain or isolate": "YU2", "result": ">10 µM"}
{"compound": "CC(C)C1=C2[C@H]3CC[C@@H]4[C@@]5(C)CC[C@H](OC(=O)[C@H]6C[C@@H](C(=O)O)C6(C)C)C(C)(C)[C@@H]5CC[C@@]4(C)[C@]3(C)CC[C@@]2([C@@H](O)CNCC(C)(C)NC(=O)c2ccc(CN3CCOCC3)cc2)CC1=O", "cell line": "MT-2", "method": "p24 / ELISA", "strain or isolate": "92HT599", "result": "<1 µM"}
{"compound": "Cc1cc(C)cc(S(=O)(=O)c2c(C(=O)NNCCO)[nH]c3ccc(Cl)cc23)c1", "cell line": "C8166", "changes": "RT-K103R V179D P225H", "method": "p24", "strain or isolate": "EFV-resistant (RT K103R V179D P225H)", "result": "<0.2 µM"}
{"compound": "COc1ccc(NC(=O)Nc2nc(/C=C/c3cc(OC)c(OC)c(OC)c3)nc3ccccc23)cc1", "cell line": "MT-4", "method": "MTT", "strain or isolate": "IIIB", "result": ">1.88 µg/mL"}
{"compound": "O=c1c2ccccc2sn1/N=C/c1ccccc1[N+](=O)[O-]", "cell line": "MT-4", "method": "MTT", "result": "19 µM"}
{"compound": "c1ccc2c(NC3CCNCC3)nc(NCc3ccc(CNCCCNC4CCCC4)cc3)nc2c1", "cell line": "TZM-bl", "method": "luciferase", "strain or isolate": "IIIB", "result": "0.0489 µM"}
{"compound": "CC(C)C1=C2[C@H]3CC[C@@H]4[C@@]5(C)CC[C@H](OC(=O)[C@H]6C[C@@H](C(=O)O)C6(C)C)C(C)(C)[C@@H]5CC[C@@]4(C)[C@]3(C)CC[C@@]2(CC(=O)NCc2ccc(Cl)cc2OCCN(C)C)CC1=O", "cell line": "MT-2", "method": "p24 / ELISA", "strain or isolate": "92HT599", "result": "<1 µM"}
{"compound": "Cc1ccc2sn(/N=C/c3cccc(F)c3)c(=O)c2c1", "cell line": "MT-4", "method": "MTT", "result": ">30 µM"}
{"compound": "Cc1cn(C/C=C\\COCP(=O)(O)O)c(=O)[nH]c1=O", "cell line": "PBL", "result": ">100 µM"}
{"compound": "COc1ccccc1NC(=O)Nc1nc(/C=C/c2cc(OC)c(OC)c(OC)c2)nc2ccccc12", "cell line": "MT-4", "method": "MTT", "strain or isolate": "IIIB", "result": ">2.03 µg/mL"}
{"compound": "O=c1c2ccccc2sn1/N=C/c1ccc(O)cc1", "cell line": "MT-4", "method": "MTT", "result": ">18 µM"}
{"compound": "CC(C)CCC[C@@H](C)[C@H]1CC[C@H]2[C@@H]3CC[C@H]4C[C@@H](CCC=C(c5cc(Cl)c(O)c(C(=O)O)c5)c5cc(Cl)c(O)c(C(=O)O)c5)CC[C@]4(C)[C@H]3CC[C@]12C", "cell line": "CEM", "method": "cytopathic effect / XTT", "strain or isolate": "IIIB", "result": "3 µg/mL"}
{"compound": "Cc1cn([C@H]2C[C@H](N=[N+]=[N-])[C@@H](CO)O2)c(=O)[nH]c1=O", "cell line": "1A2", "method": "syncytia", "result": "0.0023 µM"}
{"compound": "CC(C)C1=C2[C@H]3CC[C@@H]4[C@@]5(C)CC[C@H](OC(=O)[C@H]6C[C@@H](C(=O)O)C6(C)C)C(C)(C)[C@@H]5CC[C@@]4(C)[C@]3(C)CC[C@@]2(CCNCC(C)(C)NC(=O)c2ccccc2Cl)CC1=O", "cell line": "MT-2", "method": "p24 / ELISA", "strain or isolate": "92HT599", "result": "<1 µM"}
{"compound": "O=c1c2ccccc2sn1/N=C/c1ccccc1", "cell line": "MT-4", "method": "MTT", "result": "11 µM"}